{"source": "paper PMC7181641", "about": "“Aspartate aminotransferase Rv3722c governs aspartate-dependent nitrogen metabolism in Mycobacterium tuberculosis” (Nature Communications, 2020)", "key": {"[1]": {"test_system": "N[C@@H](CC(=O)O)C(=O)O", "assay": "purified protein", "settings": "pH 7.4; 37.0 °C"}, "[2]": {"test_system": "Nc1ccccc1C(=O)C[C@H](N)C(=O)O", "assay": "purified protein", "settings": "pH 7.4; 37.0 °C"}}, "data": [{"substance": "Rv3722c (Mycobacterium tuberculosis H37Rv)", "values": [{"measurement": "Km", "setting": "[1]", "value": 2.34, "unit": "mM"}, {"measurement": "Km", "setting": "[2]", "value": 29.4, "unit": "mM"}]}]}
